Reference: ChEMBL document CHEMBL4002566, “S-substituted 3,5-dinitrophenyl 1,3,4-oxadiazole-2-thiols and tetrazole-5-thiols as highly efficient antitubercular agents” (Eur J Med Chem, 2017)
Values after ≈ are worked out from the molar mass of the structure shown.

Assays:
[1] = tested on: Mycobacterium avium; experiment: Antimycobacterial activity against Mycobacterium avium CNCTC My 330/88 after 21 days by micromethod; format: functional
[2] = tested on: Mycobacterium avium; experiment: Antimycobacterial activity against Mycobacterium avium CNCTC My 330/88 after 14 days by micromethod; format: functional

Structure (SMILES) | MIC [1] | MIC [2]
O=[N+]([O-])c1ccc(CSc2nnc(-c3cc([N+](=O)[O-])cc([N+](=O)[O-])c3)o2)cc1 | 2 µM (≈ 0.807 µg/mL) | 2 µM (≈ 0.807 µg/mL)
NNC(=O)c1cc([N+](=O)[O-])cc([N+](=O)[O-])c1 | 250 µM (≈ 56.5 µg/mL) | 125 µM (≈ 28.3 µg/mL)
